Measured values from several laboratories, pooled; numbers as filed in NIAID ChemDB.

Common to all: cytotoxicity tests; cell line: PBMC; read-out: CC50

Blank or dashed fields: not listed here. CCn is the concentration with n% toxicity to the cells. Rows are shuffled and stem from different studies. Two numbers with a dash give a range or band.

{"smiles": "CC(C)(C)C(=O)Nc1cccc(CCNC(=O)Nc2cccc(F)c2)n1", "result": "21 µM"}
{"smiles": "Nc1nc(=O)n([C@@H]2O[C@@H](CO)[C@H](O)C2(F)F)cc1Cl", "result": ">100 µM"}
{"smiles": "NCCNc1nc(-c2ccco2)cc(-c2cc3ccccc3s2)n1", "result": "10 µM"}
{"smiles": "Fc1cccc(NC(=S)NCCc2ccc3c(n2)NCCC3)c1", "result": "1.96 µM"}
{"smiles": "OCCNc1nc(-c2cccs2)cc(-c2cc3ccccc3s2)n1", "result": "100 µM"}
{"smiles": "O=C(NCCc1cccc(-n2ccnc2)n1)Nc1ccc(C(F)(F)F)c(F)c1", "result": "50 µM"}
{"smiles": "FC(F)c1nnc2c3ccccc3c(N3CCc4ccccc4C3)nn12", "result": "20.6 µM"}
{"smiles": "CN(C)CCSc1ccc(-c2cc(-c3ccc(SCCN(C)C)cc3)ncn2)cc1", "result": "100 µM"}
{"smiles": "Nc1nc(=O)n([C@H]2O[C@@H](CO)[C@H](O)C2(F)F)cc1Br", "result": ">100 µM"}
{"smiles": "c1ccc2c(c1)CN(c1nn3c(C4CC4)nnc3c3ccccc13)C2", "result": ">100 µM"}
{"smiles": "O=C(NCCc1ccc2c(n1)NCCC2)Nc1cccc2ncccc12", "result": "1.3 µM"}
{"smiles": "Nc1nc(=O)n([C@H]2O[C@@H](CO)[C@H](O)C2(F)F)cc1F", "result": ">100 µM"}
{"smiles": "Nc1cc2c(c(N3CCOCC3)c1)CCN(c1nn3c(C4CC4)nnc3c3ccccc13)C2", "result": "13.4 µM"}
{"smiles": "O=C(NCCc1ccc2c(n1)NCCC2)Nc1cccc(F)n1", "result": "50 µM"}
{"smiles": "Cc1ccc2nc(Cl)c(/C=C/C(=O)c3cc(Cl)sc3Cl)cc2c1", "read by": "MTS", "result": "10.6 µM"}
{"smiles": "CC(=O)Nc1ccc2c(c1)CN(c1nn3c(C)nnc3c3ccccc13)CC2", "result": "79.2 µM"}
{"smiles": "Cc1ccc2nc(Cl)c(/C=C/C(=O)c3cc(C)sc3C)cc2c1", "read by": "MTS", "result": "13 µM"}
{"smiles": "Nc1nccc2c1ncn2[C@@H]1C=C(CO)[C@@H](O)[C@H]1O", "result": "9.99 µM"}
{"smiles": "Cc1nc(-c2ccccc2)sc1NC(=O)NCCc1ccc2c(n1)NCCC2", "result": "7.4 µM"}
{"smiles": "O=[N+]([O-])c1ccc2c(c1)CN(c1nn3c(C4CC4)nnc3c3ccccc13)CC2", "result": "23.8–29.4 µM"}
{"smiles": "O=C(NCCc1cccc(-n2ccnc2)n1)NCc1ccccc1Cl", "result": "50 µM"}
{"smiles": "CN(C)CCSc1cccc(-c2ccnc(-c3cccc(SCCN(C)C)c3)n2)c1", "result": "100 µM"}
{"smiles": "COc1ccc2nc(Cl)c(/C=C/C(=O)c3ccc(C)o3)cc2c1", "read by": "MTS", "result": "4.5 µM"}
{"smiles": "CN(C)CCSc1nc(-c2cccs2)cc(-c2cccs2)n1", "result": ">100 µM"}
{"smiles": "O=C(NCCc1ccc2c(n1)NCCC2)Nc1ccc(Br)nc1", "result": "0.09 µM"}
{"smiles": "COc1ccc2nc(Cl)c(/C=C/C(=O)c3ccc(I)s3)cc2c1", "read by": "MTS", "result": "23.7 µM"}
{"smiles": "FC(F)(F)c1cccc2c1CCN(c1nn3c(C4CC4)nnc3c3ccccc13)C2", "result": "49.4 µM"}
{"smiles": "Cc1cn([C@H]2O[C@@H](CO)[C@H](O)C2(F)F)c(=O)[nH]c1=O", "result": ">100 µM"}
{"smiles": "Nc1ncnc2c1ncn2[C@@H]1C=C(CO)[C@@H](O)[C@H]1O", "result": "9.98 µM"}
{"smiles": "O=C(NCCc1ccc2c(n1)NCCC2)Oc1ccccc1", "result": "50 µM"}
{"smiles": "CN1CCN(c2nc(-c3ccccc3)cc(-c3cccs3)n2)CC1", "result": "100 µM"}

For reference, 2 entries again:

smiles	read by	result
Nc1nc(=O)n([C@@H]2O[C@@H](CO)[C@H](O)C2(F)F)cc1Cl		>100 µM
COc1ccc2nc(Cl)c(/C=C/C(=O)c3ccc(I)s3)cc2c1	MTS	23.7 µM